This note sets out measurements from paper PMC9738830.

The experiment concerns the target Amyloid β 1–42 oligomers Aβ 1-42, Homo sapiens (UniProt P05067). Briefly: sandwich plate assay (chemiluminescent, Scatchard plot).

Broadly, the Kd is the free concentration of one partner at which half of the binding sites on the other are occupied at equilibrium, for simple one-to-one binding. High values mean weaker binding, low ones tighter binding. For “PrP–ALP (mouse PrPc 23–111 fused to E. coli alkaline phosphatase D101S) 23-111”, the Kd stood at 0.56 nM.
